Results of unrelated studies side by side (data: NIAID ChemDB).

Shared fields: tests in culture; species: HIV-1

Neighbouring rows are from separate reports.

smiles | strain | measure | changes | cell line | read by | setting | value
COc1ccc(S(=O)(=O)N(CC(C)C)C[C@@H](O)[C@H](Cc2ccccc2)NC(=O)OCc2ccncc2)cc1 | IIIB | EC50 | - | CEM | p24 | - | <1 µM
N#Cc1cc2[nH]c3ccccc3c2n(-c2ccc([N+](=O)[O-])cc2)c1=O | I | EC50 | RT-K101E K103N | MT-4 | cytopathic effect / MTT | - | 0.79 µM
Cc1cc(C)cc(Nn2c(-c3ccccc3)c(C)[nH]c2=S)c1 | IIIB | EC50 | - | MT-4 | cytopathic effect / MTT | - | 1.03 µM
COCc1nc(Nc2ccc(C#N)cc2)nc(Oc2c(C)cc(/C=C(\C)C#N)cc2C)c1C(=O)NCc1ccncc1 | IIIB | EC50 | - | MT4 CMV-EGFP | - | - | 0.00417 µM
COc1ccc(/C=C/c2cc(Cl)c3cc(Cl)ccc3n2)c(OC)c1 | VB59 | EC50 | - | TZM-bl | entry / luminescence | - | 0.33 µM
CCc1c(Cc2cc(C)cc(C)c2)n(COCCO)c(=O)[nH]c1=O | IIIB | EC50 | RT-Y188H | CEM | syncytia | - | >10 µM
Clc1cc(CN2CCCNCCNCCCNCC2)cc(Cl)n1 | HE R3 R5 X4 | EC50 | - | HOS-CD4-CXCR4 + HOS | p24 | - | 7.9 µM
C[C@H]1[C@H](O)[C@@H](C)/C=C/C=C/C=C/C=C/C=C/C=C/C=C/[C@H](O[C@@H]2O[C@H](C)[C@@H](O)[C@H](N)[C@@H]2O)C[C@@H]2O[C@](O)(C[C@@H](O)C[C@@H](O)CC[C@H](O)[C@@H](O)C[C@@H](O)CC(=O)O[C@H]1C)C[C@H](O)[C@H]2C(=O)O | 93BR019 CLADE BF X4 (SI) | EC50 | - | PBMC | p24 / RT activity | - | 1.6 µM
CC(C)CN(C[C@@H](O)[C@H](Cc1ccccc1)NC(=O)O[C@H]1CO[C@H]2OCC[C@H]21)S(=O)(=O)c1ccc2c(c1)OCO2 | MDR/B | EC50 | - | PHA-PBM | p24 | - | 0.0039 µM
CC[C@@H]1COC[C@@H](N(C)C(=O)C(=O)N(C)C)c2nc(C(=O)NCc3ccc(F)cc3)c(O)c(=O)n21 | - | EC50 | Y143R | HeLa P4-2 | single cycle | - | 0.001 µM
CN1c2ccccc2C2C1C=C(c1noc(C(C)(C)C)n1)C(=O)N2c1ccc([N+](=O)[O-])cc1 | LAI | EC50 | - | MT-4 | cytopathic effect / MTT | - | <1 µM
COc1ccc(S(=O)(=O)N(CC(C)C)C[C@@H](O)CCN(CC2CCCC2)S(=O)(=O)C2CCCOC2)cc1 | IIIB | EC90 | - | CEM | p24 | - | 1 µM
Cc1cc(Cl)c2ccccc2n1 | UG070 | EC50 | - | TZM-bl | luminescence | - | 135 µM
COc1ccc(S(=O)(=O)N(CC(C)C)C[C@@H](O)CCN(CC2CCCC2)S(=O)(=O)c2nccs2)cc1 | IIIB | EC90 | - | CEM | p24 | - | 1 µM
CCOCn1c(Sc2ccccc2)c(CC)c(=O)[nH]c1=O | IIIB | EC50 | - | CEM | syncytia | - | 0.006 µM
COCc1nc(Nc2ccc(C#N)cc2)nc(Nc2c(C)cc(/C=C/C#N)cc2C)c1C(=O)NCCN(C)C | L1001+K103N | EC50 | - | MT4 CMV-EGFP | - | - | 0.155 µM
Cc1sccc1C(=S)Nc1ccc(Cl)c(OCC=C(Cl)Cl)c1 | Nevirapine-resistant isolate (RT V106A) | EC50 | RT-V106A | CEM | syncytia | - | 0.065 µg/mL
CCN1c2ncc(CCOc3ccc(-c4cc(CC(=O)O)ccc4OC)cc3C)cc2C(=O)N(C)c2cccnc21 | - | EC50 | RT-K103N Y181C | C8166 | p24 | - | 0.01–0.05 µM
Clc1cc(/C=C/c2cc3ccccc3o2)nc2ccccc12 | UG070 | EC50 | - | TZM-bl | luminescence | - | 93.21 µM
COCc1nc(Nc2ccc(C#N)cc2)nc(Nc2c(C)cc(/C=C/C#N)cc2C)c1C(=O)NCCC#N | K103N + Y181C | EC50 | - | MT4 CMV-EGFP | - | - | 0.0145 µM
CCN1c2ncc(CCOc3ccc4cc(CC(=O)NN)ccc4c3)cc2C(=O)N(C)c2cccnc21 | - | EC50 | RT-K103N Y181C | C8166 | p24 | - | <0.1 µM
CCc1c(Sc2ccccc2)n(COCc2ccccc2)c(=O)[nH]c1=O | IIIB | EC50 | Nevirapine resistant (RT Y181C) | CEM | syncytia | - | 0.12 µM
CCN1c2ncc(CCOc3ccc(/C=C(\C)C(=O)O)c4ccccc34)cc2C(=O)N(C)c2ccc(F)nc21 | WT | EC50 | - | C8166 | p24 | - | <0.1 µM
Cc1ncn(Nc2cccc(Cl)c2)c1-c1cccc(Br)c1 | IIIB | EC50 | - | MT-4 | cytopathic effect / MTT | - | 0.58 µM
Cc1occc1C(=S)Nc1ccc(Cl)c(/C=N/OCC(=O)OC(C)(C)C)c1 | IIIB | EC50 | - | CEM | syncytia | - | 20 µM
CC(=O)Nc1cccc(S(=O)(=O)N(CC(C)C)C[C@@H](O)[C@H](Cc2ccccc2)NC(=O)[C@H](CC(N)=O)NC(=O)c2ccc3ccccc3n2)c1 | IIIB | EC50 | - | CEM | p24 | - | <1 µM
N#CC1=CC2Nc3ccccc3C2N(c2ccc([N+](=O)[O-])cc2)C1=O | C-98IN022 | EC50 | - | HeLa | GFP / fluorescence | - | 0.48 µM
Fc1ccc(/C=C/c2cc(Cl)c3ccccc3n2)cc1 | UG070 | EC50 | - | TZM-bl | luminescence | - | 41.34 µM
O=C(N[C@@H](Cc1ccccc1)[C@H](O)CN(CC1CCCC1)S(=O)(=O)c1ccc(F)cc1)O[C@@H]1CCOC1 | IIIB | EC50 | - | CEM | p24 | - | <1 µM
CC(C)=CCOc1cc(NC(=S)c2ccoc2C)ccc1Cl | NL4-3 | EC50 | RT-Y181C | CEM + CEM-SS | cytopathic effect / XTT | - | 0.08 µM
CCN1c2ncc(CCOc3ccc(C(C)CC(=O)O)c4ccccc34)cc2C(=O)N(C)c2cccnc21 | - | EC50 | RT-K103N Y181C | C8166 | p24 | - | <0.1 µM
COc1ccnc2[nH]cc(C(=O)C(=O)N3CCN(C(=O)c4ccccc4)C[C@H]3C)c12 | AC10 | EC50 | - | TZM-bl | luciferase | - | 0.02 µM
CCN1c2ncc(CCOc3ccc(-c4ccc(CCC(=O)O)cc4)cc3C)cc2C(=O)N(C)c2cccnc21 | - | EC50 | RT-K103N Y181C | C8166 | p24 | - | 0.01–0.05 µM
O=C1N[C@H](COC(=O)N[C@@H](Cc2ccccc2)[C@H](O)CN(CC2CCCC2)S(=O)(=O)c2ccc(Cl)cc2)CO1 | IIIB | EC50 | - | CEM | p24 | - | <1 µM
Cc1cc(CNC(=O)c2nc3n(c(=O)c2O)[C@H](C)COC[C@@H]3N(C)C(=O)C(=O)N(C)C)ccc1F | - | EC50 | G140S/Q148H | HeLa P4-2 | single cycle | - | 0.011 µM
CC(C)[C@H](NC(=O)OCc1ccccn1)C(=O)N[C@@H](Cc1ccccc1)[C@@H](O)C[C@H](Cc1ccccc1)NC(=O)OCc1cccnc1 | NL4-3 | EC95 | PR-L10R M46I L63P V82T I84V | MT-4 | p24 | - | 3 µM
N#Cc1cc(Cl)cc(Oc2c(Br)ccc(CC(=O)Nc3ccc(S(N)(=O)=O)cc3Cl)c2F)c1 | - | EC50 | G190A | MT-4 | - | - | 0.0007 µM
Cc1cc(CNC(=O)c2nc3n(c(=O)c2O)[C@@H](C)COC[C@H]3N(C)C(=O)C(=O)N(C)C)ccc1F | - | EC50 | N155H | HeLa P4-2 | single cycle | - | 0.002 µM
COCc1nc(Nc2ccc(C#N)cc2)nc(Nc2c(C)cc(/C=C/C#N)cc2C)c1C(=O)NCCc1cccs1 | IIIB | EC50 | - | MT4 CMV-EGFP | - | - | 0.0145 µM
N#CC1=CC2C(c3ccccc3N2CC(=O)O)N(c2ccc([N+](=O)[O-])cc2)C1=O | LAI | EC50 | - | MT-4 | cytopathic effect / MTT | - | 1–32 µM
CCc1c(Sc2ccccc2)n(COCc2ccccc2)c(=S)[nH]c1=O | IIIB | EC50 | RT-E138K | CEM | syncytia | - | 0.09 µM
CC(C)=CCOc1cc(NC(=S)c2ccsc2C)ccc1Cl | Thiazolobenzimidazole-resistant (RT V108I) | EC50 | RT-V108I | CEM + CEM-SS | cytopathic effect / XTT | - | 0.06 µM
CC[C@H]1COC[C@@H](N(C)C(=O)C(=O)N(C)C)c2nc(C(=O)NCc3ccc(F)cc3)c(O)c(=O)n21 | - | EC50 | N155H | HeLa P4-2 | single cycle | - | 0.001 µM
CCOCn1c(Sc2ccccc2)c(CC)c(=O)[nH]c1=S | IIIB | EC50 | - | CEM | syncytia | - | 0.011 µM
Cc1[nH]c(=S)n(Nc2cccc(Cl)c2)c1-c1cccc(C#N)c1 | SO561945 (RT K103N Y181C) | EC50 | RT-K103N Y181C | MT-4 | cytopathic effect / MTT | - | >99.4 µM
COc1ccc(S(=O)(=O)N(CC2CCCC2)C[C@@H](O)CN(CCc2ccccc2)CC(=O)c2ccccc2)cc1 | IIIB | EC50 | - | CEM | p24 | - | <1 µM
Cc1ccc(-c2ccc(NC(=O)N3CCC4(CCO4)CC3)cc2)cc1 | BJOX2000 | EC50 | - | TZM-bl | luminescence | pseudotyped | >30 µM
COc1ccc(S(=O)(=O)N(CC2CCCC2)C[C@@H](O)[C@H](Cc2ccccc2)NC(=O)OCc2cccnc2)cc1 | IIIB | EC50 | - | CEM | p24 | - | <0.1 µM
COc1ccc(NC(=S)c2ccsc2C)cc1OCC=C(Cl)Cl | TIBO R82913-resistant (RT K103N) | EC50 | RT-K103N | CEM | syncytia | - | 1.6 µg/mL
CN1c2ccccc2C2C1C=C(Cl)C(=O)N2c1ccc(C(=O)O)cc1 | LAI | EC50 | - | MT-4 | cytopathic effect / MTT | - | 1–32 µM
COCc1nc(Nc2ccc(C#N)cc2)nc(Nc2c(C)cc(/C=C/C#N)cc2C)c1C(=O)NCCc1ccc(S(N)(=O)=O)cc1 | L1001+K103N | EC50 | - | MT4 CMV-EGFP | - | - | 0.0977 µM
Cc1occc1C(=S)Nc1ccc(Cl)c(OCC=C(Cl)Cl)c1 | IIIB | EC50 | - | CEM | syncytia | - | 0.0085 µg/mL
Cc1nc(-c2ccc(N3C(=O)C=CC4C3c3ccccc3N4C)cc2)no1 | LAI | EC50 | - | MT-4 | cytopathic effect / MTT | - | 1–32 µM
COCCNC(=O)c1c(COC)nc(Nc2ccc(C#N)cc2)nc1Nc1c(C)cc(/C=C/C#N)cc1C | K103N+Y101C | EC50 | - | MT4 CMV-EGFP | - | - | 0.0166 µM
COc1ccc(S(=O)(=O)N(CC2CCCC2)C[C@@H](O)CN(CCc2ccccc2)C(C)=O)cc1 | IIIB | EC90 | - | CEM | p24 | - | 1 µM
COc1ccc(NC(=O)c2ccoc2C)cc1OCC=C(Cl)Cl | Pyridone-resistant (RT Y181C) | EC50 | RT-Y181C | CEM | syncytia | - | 8 µg/mL
COCc1nc(Nc2ccc(C#N)cc2)nc(Oc2c(C)cc(/C=C/C#N)cc2C)c1C(=O)NCc1ccncc1 | K103N+Y101C | EC50 | - | MT4 CMV-EGFP | - | - | 0.0617 µM
CCOCn1c(Sc2ccccc2)c(C(C)C)c(=O)[nH]c1=S | IIIB | EC50 | - | CEM | syncytia | - | 0.009 µM
CCC(=O)c1ccc(F)c([C@@H]2C[C@@H]2NC(=O)Nc2ccc(C#N)cn2)c1O | LAI | EC50 | NNRTI-resistant (RT K101E/Y181C) | TZM-bl | β-galactosidase / luminescence | - | 0.0355 µM
CC(C)c1c(Sc2ccccc2)n(COCCO)c(=S)[nH]c1=O | IIIB (TIBO 82150) (RT-L100I) | EC50 | RT-L100I | CEM | syncytia | - | 1 µM
O=C(c1ccccc1)N(CCc1ccccc1)C[C@H](O)CN(CC1CCCC1)S(=O)(=O)CC1CCOC1 | IIIB | EC50 | - | CEM | p24 | - | <1 µM
CC(=O)c1c(C)nc(-c2ccccc2)nc1NC(=O)c1ccccc1 | 83-2/B1-T20r | EC50 | - | HeLa | GFP / fluorescence | - | 0.04 µM
COP(=O)(c1cc(C)cc(CCC#N)c1)c1c(C(N)=O)[nH]c2ccc(Cl)cc12 | NL4-3 | EC50 | K103N | MT-4 | p24 / ELISA | - | 0.0015 µM
Cc1[nH]c(=S)n(Nc2ccccc2)c1C | IIIB | EC50 | - | MT-4 | cytopathic effect / MTT | - | >181 µM
CC(=O)Nc1ccc(S(=O)(=O)N(CC(C)C)C[C@@H](O)[C@H](Cc2ccccc2)NC(=O)OCc2cccnc2)cc1 | IIIB | EC50 | - | CEM | p24 | - | <1 µM
COc1ccc(N2C(=O)C(C#N)=CC3C2c2ccccc2N3C)cc1 | LAI | EC50 | - | MT-4 | cytopathic effect / MTT | - | 1–32 µM
CC(C)=CCOc1cc(NC(=S)c2ccsc2C)ccc1Cl | NL4-3 | EC50 | RT-L100I | CEM + CEM-SS | p24 | - | 0.2 µM
CC(C)CN(CC(O)Cc1ccccc1C(=O)NC(C)(C)C)S(=O)(=O)c1ccccc1 | IIIB | EC90 | - | CEM | p24 | - | 1 µM
CC(C)CN(C[C@@H](O)[C@H](Cc1ccccc1)NC(=O)O[C@H]1CCOC1)S(=O)(=O)c1ccc(N)cc1 | T21729 | EC50 | R41E | MT-4 | reporter gene | - | 188 nM
CCN1c2ncccc2NC(=O)c2cc(CCOc3ccc(-c4cc(OC)c(O)c(C(=O)O)c4)cc3C)cnc21 | - | EC50 | RT-K103N Y181C | C8166 | p24 | - | >0.05 µM
CC(=O)Nc1ccc(S(=O)(=O)N(CC(C)C)C[C@@H](O)[C@H](Cc2ccccc2)NC(=O)OC(C)C)cc1 | IIIB | EC50 | - | CEM | p24 | - | <10 µM
CCN1c2ncc(CCOc3ccc(CC(=O)O)c4c3CCCC4)cc2C(=O)N(C)c2ccc(Cl)nc21 | WT | EC50 | - | C8166 | p24 | - | <0.1 µM
CCOCn1c(Cc2cc(C)cc(C)c2)c(CC)c(=O)[nH]c1=O | IIIB | EC50 | RT-Y181C | CEM | syncytia | - | 0.04 µM
COc1ccnc2[nH]cc(C(=O)C(=O)N3C4CCCC3CN(C(=O)c3ccccc3)C4)c12 | PVO | EC90 | - | TZM-bl | luciferase | - | 18 µM
CCN1c2ncc(CCOc3ccc(-c4ccc(CC(=O)O)cc4)cc3C)cc2C(=O)N(C)c2cccnc21 | - | EC50 | RT-K103N Y181C | C8166 | p24 | - | <0.01 µM
CCc1c(Sc2cc(C)cc(C)c2)n(COCCO)c(=S)[nH]c1=O | IIIB | EC50 | RT-Y181I | CEM | syncytia | - | 1 µM
Cn1c2ccccc2c2c1cc(C#N)c(=O)n2-c1ccc([N+](=O)[O-])cc1 | H | EC50 | RT-K103N Y181C | MT-4 | cytopathic effect / MTT | - | 0.13 µM

ECn: concentration that inhibits the pathogen or its effect by n%. Blank or dashed fields: not listed here. a–b is a range or a potency band.